Pooled drug test results. Numbers come from NIAID ChemDB, via PubChem.

Shared fields: cytotoxicity tests; cells: CV-1; read-out: CC50

An empty or dashed field is not shown.

compound,method,value
O=C(OC1OC2COC(=O)c3cc(Oc4c(C(=O)OC5OC6COC(=O)c7cc(O)c(O)c(O)c7-c7c(cc(O)c(O)c7O)C(=O)OC6C(OC(=O)c6cc(O)c(O)c(O)c6)C5OC(=O)c5cc(O)c(O)c(O)c5)cc(O)c(O)c4O)c(O)c(O)c3-c3c(cc(O)c(O)c3O)C(=O)OC2C(OC(=O)c2cc(O)c(O)c(O)c2)C1OC(=O)c1cc(O)c(O)c(O)c1)c1cc(O)c(O)c(O)c1,-,>30 µg/mL
Nc1ncnc2c1ncn2[C@@H]1CC[C@@H](O)[C@H]1O,-,100 µg/mL
O=C(OC1OC2COC(=O)c3cc(Oc4c(C(=O)OC5C(O)OC6COC(=O)c7cc(O)c(O)c(O)c7-c7c(cc(O)c(O)c7O)C(=O)OC6C5OC(=O)c5cc(O)c(O)c(O)c5)cc(O)c(O)c4O)c(O)c(O)c3-c3c(cc(O)c(O)c3O)C(=O)OC2C(OC(=O)c2cc(O)c(O)c(O)c2)C1O)c1cc(O)c(O)c(O)c1,-,>30 µg/mL
Nc1nc2c(ncn2COCCO)c(=O)[nH]1,-,220 µM
CCCc1cc(=O)oc2cc(O)c(C(=O)CC)c(O)c12,neutral red,6 µg/mL
CC(C)=CCc1cc(-c2coc3cc(O)cc(O)c3c2=O)cc(O)c1O,-,15 µg/mL
CNc1nc(=O)c2ncn([C@@H]3O[C@H](CO)[C@@H](O)[C@H]3O)c2c(=O)[nH]1,-,>100 µM
O=C(O[C@@H]1O[C@@H]2COC(=O)c3cc(O)c(O)c(O)c3-c3c(cc(O)c(O)c3O)C(=O)O[C@H]2[C@@H]2OC(=O)c3cc(O)c(O)c(O)c3-c3c(cc(O)c(O)c3O)C(=O)O[C@@H]12)c1cc(O)c(O)c(O)c1,-,>30 µg/mL
Nc1nc(=O)c2nc(-c3ccccc3)n([C@@H]3O[C@H](CO)[C@@H](O)[C@H]3O)c2c(=O)[nH]1,-,>100 µM
CCCc1cc(=O)oc2c(C(=O)CC)c(O)cc(O)c12,neutral red,20 µg/mL
C[C@@]1(O)[C@H](O)[C@@H](COP(=O)(O)OP(=O)(O)OP(=O)(O)O)O[C@H]1n1ccc2c(N)ncnc21,-,180 µM
CCCc1cc(=O)oc2cc(O)cc(O)c12,neutral red,>100 µg/mL
Nc1ncnc2c1ncn2[C@H]1CC[C@H](O)[C@@H]1O,-,100 µg/mL
CCCc1cc(=O)oc2c(C(=O)CC)c(O)c(C(=O)CC)c(O)c12,neutral red,100 µg/mL
O=CC(OC(=O)c1cc(O)c(O)c(O)c1Oc1cc2c(c(O)c1O)-c1c(cc(O)c(O)c1O)C(=O)OC(C(OC(=O)c1cc(O)c(O)c(O)c1)C(C=O)OC(=O)c1cc(O)c(O)c(O)c1)C(O)COC2=O)C(OC(=O)c1cc(O)c(O)c(O)c1)C1OC(=O)c2cc(O)c(O)c(O)c2-c2c(cc(O)c(O)c2O)C(=O)OCC1O,-,>30 µg/mL

A second listing of 2 rows from above:

| compound | method | value |
|---|---|---|
| C[C@@]1(O)[C@H](O)[C@@H](COP(=O)(O)OP(=O)(O)OP(=O)(O)O)O[C@H]1n1ccc2c(N)ncnc21 | - | 180 µM |
| CNc1nc(=O)c2ncn([C@@H]3O[C@H](CO)[C@@H](O)[C@H]3O)c2c(=O)[nH]1 | - | >100 µM |

CCn: concentration that lowers growth or viability of the cells by n%. Rows are shuffled and stem from different studies.